From article PMC9235892 (Virulence, 2022) come the findings set out here.

The test system of experiment [1] is SARS-CoV-2 B (PANGO lineage). The experiment is described as follows: Resistant variant selection by serial passage in Vero CCL81. Particulars: eight passages, 3, 10 then 32 µM.
A further experiment deals with SARS-CoV-2. As to conditions: from CC50 and EC50, Vero CCL81.

On to `CN1CCN(C[C@@H](O)CO[C@H]2CC[C@@]3(C)C(CCC4C3CC[C@]3(C)C(=O)CCC43)C2)CC1` (stereo partly drawn) [LNB169], for which, in experiment [1], the “acquisition of resistance by virus passaged in presence of compound” value is reported as “acquired resistance to the compound”.
Regarding `CN1CCN(C[C@H](O)CO[C@H]2CC[C@@]3(C)C(CCC4C3CC[C@]3(C)C(=O)CCC43)C2)CC1` (stereo partly drawn) [LNB167], in experiment [1], the “acquisition of resistance by virus passaged in presence of compound” value is recorded as “had not acquired resistance”. Further, the selectivity index (SI) with SARS-CoV-2 amounted to 154.
